Three molecules from patent US20240109955A1 (published 2024) can be followed below.

What all share (experiment): cell-based or functional assay
Test [1] concerns the target SARS-CoV-2 D614G spike protein mutant (SARS-CoV-2, UniProt P0DTC2 14-1273).
For test [2], the target named is SARS-CoV-2 Delta variant spike protein (SARS-CoV-2, UniProt P0DTC2 14-1273).
Test [3] concerns the target SARS-CoV-2 spike protein, original Wuhan strain (WT) (SARS-CoV-2, UniProt P0DTC2 14-1273).

B1: MX1047 (bispecific antibody)
chain 1: DTVMTQSPLSLPVTPGEPASISCRSSQSLLNSNGYNYLDWYVQKPGQSPQLLIYLGSNRASGVPDRFSGSGSGTDFTLKISRVEAEDVGVYYCMQPLQTPLFTFGPGTKVEIKGGSSGEIVLTQSPGTLSLSPGERATLSCRASQSVSSSYLAWYQQKPGQAPRLLIYSASSRATGIPDRFSGSGSGTDFTLTISRLEPEDFAVYFCQQYVGLTGWTFGQGTKVEIKGGGGSGGSGSGGGGSASGSGQMQLVQSGPEVKKPGTSVKVSCKASGFTFTSSAVQWVRQRQRLEWIGWIVVGSGNTNYAQKFQERVTITRDMSTSTAYMELSSLRSEDTAVYYCAAPNCSNVVCYDGFDIWGQGTMVTVSSGGSSGQVTLRESGPALVKPTQTLTLTCTFSGFSLSTRGVCVSWIRQPPGKALEWLAFIDWDDDKYYNTSLKTRLTISKDTSKNQVVLTMTNVHPVDTATYYCARISSHHGSSWCTTFDYWGQGALVTVSAASGGSGDKTHTCPPCPAPELLGGPSVFLFPPKPKDTLMISRTPEVTCVVVDVSHEDPEVKFNWYVDGVEVHNAKTKPREEQYNSYVVSVLTVLHQDWLNGKEYKCKVSNKALPAPIEKTISKAKGQPREPQVYTLPPSRDELTKNQVSLTCLVKGFYPSDIAVEWESNGQPENNYKTTPPVLDSDGSFFKKLTVDKSRWQQGNVFSCSVLHEALHSHYTQKSLSLSPG
chain 2: EIVLTQSPGTLSLSPGERATLSCRASQSVSSSYLAWYQQKPGQAPRLLIYSASSRATGIPDRFSGSGSGTDFTLTISRLEPEDFAVYFCQQYVGLTGWTFGQGTKVEIKGGSSGQTVVTQEPSFSVSPGGTVTLTCGLSSGSVSTAYFPSWYQQTPGQAPRTLIYGTNTRSSGVPDRFSGSILGNKAALTITGAQADDESDYYCVLYMGRGIVVFGGGTKLTVLGGGGSGGSGSGGGGSASGSGQVQLVESGGGVVQPGRSLRLSCAASGFTLSSYGMHWVRQAPGKGLEWVAVISYDGSNKYYVDSVKGRFTISRDNSKNTLYLQMNSLRAEDTAVYYCRWAYWELLPDYYYGMDVWGQGTTVTVSSGGSSGQMQLVQSGPEVKKPGTSVKVSCKASGFTFTSSAVQWVRQRQRLEWIGWIVVGSGNTNYAQKFQERVTITRDMSTSTAYMELSSLRSEDTAVYYCAAPNCSNVVCYDGFDIWGQGTMVTVSSASGGSGDKTHTCPPCPAPELLGGPSVFLFPPKPKDTLMISRTPEVTCVVVDVSHEDPEVKFNWYVDGVEVHNAKTKPREEQYNSYVVSVLTVLHQDWLNGKEYKCKVSNKALPAPIEKTISKAKGQPREPQVYTLPPSRDELTKNQVSLTCLVKGFYPSDIAVEWESNGQPENNYKTTPPVLDSDGSFFKKLTVDKSRWQQGNVFSCSVLHEALHSHYTQKSLSLSPG
In the case of B1, the “IC80, pseudovirus neutralization” value in test [1] worked out at 0.00552 µg/mL; in test [2], 0.0469 µg/mL. In addition, the “IC50, pseudovirus neutralization” value in test [2] was 0.0277 µg/mL.

B2: MX1049 (bispecific antibody)
chain: EIVLTQSPGTLSLSPGERATLSCRASQSVSSSYLAWYQQKPGQAPRLLIYSASSRATGIPDRFSGSGSGTDFTLTISRLEPEDFAVYFCQQYVGLTGWTFGQGTKVEIKGGSSGDTVMTQSPLSLPVTPGEPASISCRSSQSLLNSNGYNYLDWYVQKPGQSPQLLIYLGSNRASGVPDRFSGSGSGTDFTLKISRVEAEDVGVYYCMQPLQTPLFTFGPGTKVEIKGGGGSGGSGSGGGGSASGSGQVTLRESGPALVKPTQTLTLTCTFSGFSLSTRGVCVSWIRQPPGKALEWLAFIDWDDDKYYNTSLKTRLTISKDTSKNQVVLTMTNVHPVDTATYYCARISSHHGSSWCTTFDYWGQGALVTVSAGGSSGQMQLVQSGPEVKKPGTSVKVSCKASGFTFTSSAVQWVRQRQRLEWIGWIVVGSGNTNYAQKFQERVTITRDMSTSTAYMELSSLRSEDTAVYYCAAPNCSNVVCYDGFDIWGQGTMVTVSSASGGSGDKTHTCPPCPAPELLGGPSVFLFPPKPKDTLMISRTPEVTCVVVDVSHEDPEVKFNWYVDGVEVHNAKTKPREEQYNSYVVSVLTVLHQDWLNGKEYKCKVSNKALPAPIEKTISKAKGQPREPQVYTLPPSRDELTKNQVSLTCLVKGFYPSDIAVEWESNGQPENNYKTTPPVLDSDGSFFKKLTVDKSRWQQGNVFSCSVLHEALHSHYTQKSLSLSPG
B2: the “IC80, pseudovirus neutralization” value in test [1] was determined as 0.0128 µg/mL. In addition, in test [2], the “IC50, pseudovirus neutralization” value was found to be 0.0188 µg/mL and the “IC80, pseudovirus neutralization” value turned out to be 0.022 µg/mL.

B3: A19-61.1 (antibody, V domains shown)
VH: QVQLVESGGGVVQPGRSLRLSCAASGFTFSSYAFHWVRQAPGKGLEWVAVISYDGSNQYYADSVKGRFTISRDNSKNTLYLQMNSLRADDTAVYYCARDLAIAVAGTWHYYNGMDVWGQGTTVTVSS
VL: DIQMTQSPSSVSASVGDRVIITCRASQGISSWLAWYQQKPGKAPKVLIYDASSLQSGVPSRFSGSGYGTDFTLTISSLQPEDSATYYCQQAKSFPITFGQGTRLEIK
As for B3, in test [3], the “IC80, pseudovirus neutralization” value came out at 408 pM.
